Earlier results on one compound are cited in patent publication US20230218581A1, “COMPOSITIONS AND METHODS COMPRISING DENDRIMERS AND THERAPEUTIC AGENTS” (The Johns Hopkins University, priority 2020, published 2023).

Data set [1] has as its system Zika virus. To be noted: murine neuronal cell cultures; tested form: 2HCl; cited from earlier work.
The test system of data set [2] is kidney cells exposed to Epsilon-toxin. Conditions: tested form: 2HCl; cited from earlier work.
Data set [3] has as its system Zika virus. Conditions: human fetal astrocytes; tested form: 2HCl; cited from earlier work.
The test system of data set [4] is human immunodeficiency virus (HIV). To be noted: tested form: 2HCl; cited from earlier work.

Regarding `O=C(C=Cc1ccc(C=CC(=O)Nc2ccc(C3=NCCN3)cc2)cc1)Nc1ccc(C2=NCCN2)cc1`, in the data set on Zika virus [1], the “EV release and viral RNA levels” value is “reduced EV release and diminished viral RNA levels”. For the same compound, in data set [2], the cell death result was “reduced cell-death”. Also, the Zika virus propagation result in the data set with Zika virus [3] is recorded as “diminished Zika virus propagation”. The “dendritic cell-mediated infection of healthy CD4+ T lymphocytes” value in data set [4] is reported as “reduced”.
